Source: PubChem BioAssay AID1259414 (Drosophila RNAi Screening Center, 2018)

Screen: 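Host factors increasing or decreasing Wolbachia levels in cultured fly cells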 (primary screen)
System: Drosophila JW18 cells infected with Wolbachia
Reagent: long dsRNA against Drosophila genes, 0.25 µg dsRNA per well of a 384-well plate
Duration: 5 days
Conditions: cells persistently infected with Wolbachia before knock-down; no added drug
Read-out: 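Imaged fluorescence in situ signal for Wolbachia 23S rRNA per DAPI-counted host cell, given as a robust z-score within each plate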
Reading the numbers: Wolbachia per cell robust z: higher = more Wolbachia per host cell than the plate typical
Rule for the call: 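Hit when robust z is 1.5 or more, or -1.5 or less, in at least two of three replicates; excludes dsRNAs with several or no targets, genes not expressed in JW18 and well A1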
The deposit covers about 24,000 reagents; this is a random part of those with a known target gene and a result. In the full data, about 1,210 (5%) were called active. 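Inactive calls also include excluded dsRNAs with several or no targets, genes unexpressed in JW18, and well A1, regardless of score.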 Entries without a mark were called inactive. A plus sign joins genes that one reagent is predicted to hit.

predicted target	amplicon	Wolbachia per cell robust z, rep 1	Wolbachia per cell robust z, rep 2	Wolbachia per cell robust z, rep 3
Ppt2 (Palmitoyl-protein Thioesterase 2)	DRSC02786	-8.67 (active)	-3.2	0.951
Ppt2 (Palmitoyl-protein Thioesterase 2)	DRSC26027	0.535 (active)	-1.9	-2.27
ZnT86D (Zinc transporter 86D)	DRSC16091	-0.62	-0.675	-2.4
Mad1 (Mitotic arrest-deficient 1)	DRSC07561	0.977	-2.52	-0.239
l(2)34Fc (lethal (2) 34Fc)	DRSC01910	-0.789	0.196	-0.681
128up (upstream of RpIII128)	DRSC05027	1.62 (active)	0.263	1.61
128up (upstream of RpIII128)	DRSC24366	-2.76	-4.71	-8.37
Cpr78E (Cuticular protein 78E)	DRSC11807	0.239	0.253	-1.26
wap (wings apart)	DRSC20626	0.363	-0.0465	0.366
Smyd4-3 (SET and MYND domain containing, class 4, member 3)	DRSC07041	0.252	-0.401	-2.04
Smyd4-3 (SET and MYND domain containing, class 4, member 3)	DRSC28851	0.696	-1.37	-0.272
Tsp26A (Tetraspanin 26A)	DRSC03135	0.0406	-3.1	0.0304
CG42394 + CG6567	DRSC40574	-0.965	-2.26	-0.438
CG11454	DRSC00310	1.38	1.23	1.68
CG11454	DRSC25138	1.1	0.405	0.425
CG15764	DRSC18070	0.394	-2.23	-1.3
CG15764	DRSC25755	0.0834	-0.231	0.0455
CG15711	DRSC06582	0.271	0.213	0.963
CG32706 + CG6999	DRSC18412	-1.48	-7.24	-0.826
CG32706 + CG6999	DRSC23954	1.09	-0.919	0.0854
CG12702	DRSC19487	-0.539 (active)	-1.62	-2.2
CG12702	DRSC27645	0.419	-0.483	0.881
TBPH (TAR DNA-binding protein-43 homolog)	DRSC04660	0.309	-3.72	-0.287
TBPH (TAR DNA-binding protein-43 homolog)	DRSC28032	-1	-2.64	-0.76
CG11099	DRSC06034	-1.59	-0.0659	1.44
CG1273	DRSC08291	-5.75	0.622	-0.307
brun (brunelleschi)	DRSC02706	0.185	0.00325	1.16
Cchl (Cytochrome c heme lyase)	DRSC15949	-9.26	1.39	-0.564
